Data from patent US7282599B2, “Dithiocarbamate antiviral agents and methods of using same” (Avir Green Hills Biotechnology Research Devlopment Trade AG, priority 2001, dated 2007).

Test system: influenza virus A/PR8/34
Details: vero cells, m.o.i. 0.01, 600 μM PDTC, supernatants after 48 and 72 hours

S=C(S)N1CCCC1 [PDTC, pyrrolidine dithiocarbamate]
reduction of virus titer compared with the control sample: more than 2 log steps
